According to US9295730B2, “Conjugated molecules comprising a peptide derived from the CD4 receptor coupled to a polyanion for the treatment of AIDS” (Institut Pasteur, priority 2008, dated 2016):
“And” between values parts separate entries of the source, which are not always exact repeats. Equal values may be shown once. Read-outs that look alike come from different tables or passages of the source.

Experiments:
gp120 MN/HS interaction = target: T1, gp120 MN/HS interaction (Human immunodeficiency virus type 1 group M subtype B, UniProt P05877); assay: Biacore inhibition of gp120 MN binding to HS surface; set-up: species or system HIV; settings: gp120 MN and inhibitors at 40 nM
T1 construct: of mCD4-HS12 for MN and YU2 gp120
Experimental: FIG. 5: Diagram representing the binding of gp120 (MN) to HS.
(§1) Two different gp120 were used, originating from a type X4 isolate (gp120 MN) and a type R5 isolate (gp120 YU2). The capacity of different molecules to inhibit gp120 interactions with various receptors or co-receptors is measured by surface plasmonic resonance (Biacore). To do this, three compounds are immobilized on the surface of a biosensor (Sensorchip CM 4 Biacore) in accordance with the described procedure (Vives et al. J. Biol. Chem. 279, 54327-54333, 2005). These are CD4, HS (or heparin) and a monoclonal antibody (mAb 17b). This antibody recognizes the epitope induced by CD4 and mimics co-receptor CCR5 or CXCR4. These three surfaces represent the three main molecules on the cell surface recognized by gp120 (CD4, co-receptors and HS).
(§2) In the set of experiments described below, gp120 (light lines on FIGS. 4 to 6) alone or pre-incubated with the compound to be tested (heavy lines on FIGS. 4 to 6) is injected onto these surfaces, and the interaction signal is measured as a function of time for five minutes.

[1] = tested on: Δenv + VSVg-HIV-1 (Δenv+VSVg-luc); assay type: cell-based, HIV-1 pseudotyped with VSV-G
[2] = target: gp120 MN/mAb 17b interaction (Human immunodeficiency virus type 1 group M subtype B, UniProt P05877); assay: Biacore gp120 MN binding to mAb 17b surface; set-up: species or system HIV
Experimental: (§3) FIG. 6: Diagram representing the binding of gp120 (YU2 or MN) to mAb 17b.
(§4) FIG. 7: Diagram representing the binding of gp120 MN (top) or YU2 (bottom) to mAb 17b.
as §1, §2
(§5) The quantity of gp120 bound to the antibody is measured at the end of the injection.

R5-tropic HIV-1/Ba-L = assay: Antiviral assay, PHA-P-activated PBMC infected with HIV-1/Ba-L, RT activity in supernatants; assay type: cell-based; settings: Table 6, /Ba-L (R5), 100 TCID50, day 7, RT activity, ±S.D.
[3] = target: gp120 YU2/mAb 17b interaction (Human immunodeficiency virus type 1 group M subtype B, UniProt P35961); assay: Biacore gp120 YU2 binding to mAb 17b surface; set-up: species or system HIV
Experimental: as §3, §4, §1, §2, §5

[4] = tested on: NL4-3 HIV-1 (NL4-3-renilla); assay type: cell-based; settings: PBMC, day 2, 10^6 RLU virus (untreated 4.38 ± 0.49)
MN gp120 (X4) = target: T2, MN gp120 (X4) (Human immunodeficiency virus type 1 group M subtype B, UniProt P05877); assay: Surface plasmon resonance binding of mCD4-HS12 to immobilized MN gp120; set-up: species or system HIV; settings: read-out: Kd = koff1/kon1
T2 construct: of mCD4-HS12 for MN and YU2 gp120
Experimental: (§6) FIG. 9. The mCD4-HS12 (3) binds to gp120 unmasks and blocks the gp120 coreceptor binding site. Overlay of sensorgrams showing the binding of mCD4-HS12 (25), at (from top to bottom) 76, 51, 37, 22, 15 and 10 nM, to immobilized YU2 (a) or MN (b) gp120. mCD4 (black) or mCD4-HS12 (25) (bold) were injected for 5 mins (100 to 400 s) at 200 nM over a YU2 (c,e) or MN (d,f) activated sensorchip, after which mAb 17b (c,d) or mAb E51 (e,f) were injected for a further 5 mins (400 to 700 s). The binding responses (in RU) were recorded as a function of time (in s). […]
(§7) Association (kon) and dissociation (koff) rate constants (the mean of two independent analyses) of mCD4-HS12 (25) for MN and YU2 gp120 were determined by fitting the primary data of FIGS. 9a,b using the Biaeval 3.1 software. […] However, some deviations of the data from this model were observed, as measured by the χ^2 parameter (which describes the closeness of the fit). […] However this cannot be quantified here because, for the bivalent binding model, the association rate constant for the second binding site is in RU^−s^−1 (the reaction involves the complex (in RU) binding to ligand (also in RU)), and not in M^−1s^−1.

[5] = target: gp120 YU2/CD4 interaction (Human immunodeficiency virus type 1 group M subtype B, UniProt P35961); assay: Biacore inhibition of gp120 YU2 binding to CD4 surface; set-up: species or system HIV; settings: gp120 YU2 (R5) and inhibitors at 100 nM
Experimental: as §1, §2

YU2 gp120 (R5) = target: T3, YU2 gp120 (R5) (Human immunodeficiency virus type 1 group M subtype B, UniProt P35961); assay: Surface plasmon resonance binding of mCD4-HS12 to immobilized YU2 gp120; set-up: species or system HIV; settings: read-out: Kd = koff1/kon1
T3 construct: of mCD4-HS12 for MN and YU2 gp120
Experimental: as §6, §7

X4-tropic HIV-1-LAI = assay: Antiviral assay, PHA-P-activated PBMC infected with HIV-1-LAI, RT activity in supernatants; assay type: cell-based; settings: Table 6, LAI (X4), 100 TCID50, day 7, RT activity, ±S.D.
gp120 MN/CD4 interaction = gp120 MN/CD4 interaction (Human immunodeficiency virus type 1 group M subtype B, UniProt P05877); assay: Biacore inhibition of gp120 MN binding to CD4 surface; set-up: species or system HIV; settings: gp120 MN (X4) and inhibitors at 100 nM
Experimental: as §1, §2

[6] = read-out: ED50 (the source's name)
[7] = Bivalent binding model, initial binding step

CC(C)C[C@@H]1NC(=O)CNC(=O)[C@H](CC(C)C)NC(=O)[C@H](CO)NC(=O)[C@H](CO)NC(=O)[C@@H]2CSSC[C@@H](C(=O)N[C@H](C(N)=O)C(C)C)NC(=O)[C@H](C)NC(=O)[C@@H]3CSSC[C@H](NC(=O)[C@H](CCCCNC(=O)CCOCCOCCNC(=O)CCN4C(=O)CC(SCCC(=O)NCCCCCO[C@@H]5O[C@H](COS(=O)(=O)O)[C@@H](O[C@@H]6O[C@@H](C(=O)O)[C@@H](O[C@H]7O[C@H](COS(=O)(=O)O)[C@@H](O[C@@H]8O[C@@H](C(=O)O)[C@@H](O[C@H]9O[C@H](COS(=O)(=O)O)[C@@H](O[C@@H]%10O[C@@H](C(=O)O)[C@@H](O[C@H]%11O[C@H](COS(=O)(=O)O)[C@@H](O[C@@H]%12O[C@@H](C(=O)O)[C@@H](O[C@H]%13O[C@H](COS(=O)(=O)O)[C@@H](O[C@@H]%14O[C@@H](C(=O)O)[C@@H](O[C@H]%15O[C@H](COS(=O)(=O)O)[C@@H](O[C@@H]%16O[C@@H](C(=O)O)[C@@H](O)[C@H](O)[C@H]%16OS(=O)(=O)O)[C@H](O)[C@H]%15NS(=O)(=O)O)[C@H](O)[C@H]%14OS(=O)(=O)O)[C@H](O)[C@H]%13NS(=O)(=O)O)[C@H](O)[C@H]%12OS(=O)(=O)O)[C@H](O)[C@H]%11NS(=O)(=O)O)[C@H](O)[C@H]%10OS(=O)(=O)O)[C@H](O)[C@H]9NS(=O)(=O)O)[C@H](O)[C@H]8OS(=O)(=O)O)[C@H](O)[C@H]7NS(=O)(=O)O)[C@H](O)[C@H]6OS(=O)(=O)O)[C@H](O)[C@H]5NS(=O)(=O)O)C4=O)NC(=O)[C@H](Cc4c[nH]cn4)NC(=O)[C@H](CC(C)C)NC(=O)[C@H](CC(N)=O)NC(=O)CCSSC[C@H](NC(=O)[C@H](CCCNC(=N)N)NC(=O)CNC(=O)[C@H](CC(C)C)NC1=O)C(=O)N[C@@H](C)C(=O)NCC(=O)N[C@@H](CO)C(=O)N[C@@H](Cc1ccc(-c4ccccc4)cc1)C(=O)N3)C(=O)N[C@@H](CCC(N)=O)C(=O)N[C@@H](CC(C)C)C(=O)N[C@@H](CCCNC(=N)N)C(=O)N2 (stereo partly drawn) [mCD4-HS12, mCD4-PEO2-dodecasaccharide]
inhibition of gp120/HS interaction (gp120 MN/HS interaction): totally inhibit the interaction
Luciferase activity [1]: 8.97 ± 0.26 RLU×10^−5 and 6.70 ± 2.9 RLU×10^−5 and 6.50 ± 1.13 RLU×10^−5
effect on gp120-17b interaction ([2]; 40 nM gp120 MN co-incubated with 0 to 80 nM, FIG. 7): strongly inhibits the gp120-17b interaction
effect on gp120 binding to mAb 17b ([2]; gp120 MN and inhibitors at 40 nM, FIG. 6): totally inhibit the interaction
ED70 (R5-tropic HIV-1/Ba-L): 4.9 ± 0.3 nM
ED90 (R5-tropic HIV-1/Ba-L): 11.1 ± 7.6 nM
EC50 (R5-tropic HIV-1/Ba-L; [6]): 2.4 ± 1.9 nM
effect on gp120-17b interaction ([3]; 40 nM gp120 YU2 co-incubated with 0 to 80 nM, FIG. 7): strongly inhibits the gp120-17b interaction
effect on gp120 binding to mAb 17b ([3]; gp120 YU2 and inhibitors at 40 nM, FIG. 6): totally inhibit the interaction
Luciferase activity ([4]; mCD4-HS12 5 nM): 0.142 ± 0.64 RLU×10^−5
Luciferase activity ([4]; mCD4-HS12 20 nM): 0.047 ± 0.06 RLU×10^−5
Luciferase activity ([4]; mCD4-HS12 100 nM): 0.035 ± 0.05 RLU×10^−5
Kd (MN gp120 (X4); 1:1 Langmuir model): 3.7 nM
Kd (MN gp120 (X4); [7]): 10 nM
inhibition of gp120/CD4 interaction [5]: inhibits the gp120/CD4 interaction more strongly than mCD4
Kd (YU2 gp120 (R5); 1:1 Langmuir model): 2.7 nM
Kd (YU2 gp120 (R5); [7]): 7.2 nM
ED70 (X4-tropic HIV-1-LAI): 2.05 ± 0.55 nM
ED90 (X4-tropic HIV-1-LAI): 3.0 ± 0.65 nM
EC50 (X4-tropic HIV-1-LAI; [6]): 1.4 ± 0.9 nM
inhibition of gp120/CD4 interaction (gp120 MN/CD4 interaction): inhibits the gp120/CD4 interaction more strongly than mCD4
